{
  "source": "patent US20050196375A1",
  "about": "“Methods of applying antibiotic compounds to polyurethane biomaterials using textile dyeing technology” (priority 2000, published 2005)",
  "assay": "Dyeing of cPU with classes of dyes, depth of shade (K/S) by reflectance",
  "type": "physicochemical",
  "conditions": "liquor ratio 100:1, 10% owf",
  "key": {"[1]": {"conditions": "no special dyeing condition printed, 65° C."}, "[2]": {"conditions": "with salt (20 g/l), 65° C. 45 minutes"}, "[3]": {"conditions": "without salt, 65° C. 45 minutes"}},
  "data": [
    {"molecule": "CCOc1ccc(Nc2ccc(C(=C3C=CC(=[N+](CC)Cc4cccc(S(=O)(=O)[O-])c4)C=C3)c3ccc(N(CC)Cc4cccc(S(=O)(=O)[O-])c4)cc3)cc2)cc1.[Na+]", "note": "[C.I. Acid Blue 83]", "values": [
      {"measurement": "K/S (depth of shade) cPU", "setting": "dyebath pH = 2.5, 65° C.", "value": 4.2588},
      {"measurement": "K/S (depth of shade) cPU", "setting": "dyebath pH = 3.3, 65° C.", "value": 0.8807},
      {"measurement": "K/S (depth of shade) cPU", "setting": "dyebath pH = 6.0, 65° C.", "value": 0.9509}
    ]},
    {"molecule": "CCN(CCO)c1ccc(N=Nc2sc3cc(OC)ccc3[n+]2C)cc1.COS(=O)(=O)[O-]", "note": "[C.I. Basic Blue 41]", "values": [
      {"measurement": "K/S (depth of shade) cPU", "setting": "[1]", "value": 11.805}
    ]},
    {"molecule": "Cc1cc(-c2ccc(N=Nc3c(S(=O)(=O)[O-])cc4cc(S(=O)(=O)[O-])cc(O)c4c3O)c(C)c2)ccc1N=Nc1c(S(=O)(=O)[O-])cc2cc(S(=O)(=O)[O-])cc(O)c2c1O.[Na+].[Na+].[Na+].[Na+]", "note": "[C.I. Direct Blue 25]", "values": [
      {"measurement": "K/S (depth of shade) cPU", "setting": "[2]", "value": 0.0360},
      {"measurement": "K/S (depth of shade) cPU", "setting": "[3]", "value": 0.0286}
    ]},
    {"molecule": "CCN(CC)c1ccc(N=Nc2c(C#N)cc([N+](=O)[O-])cc2C#N)c(NC(C)=O)c1", "note": "[C.I. Disperse Blue 165]", "values": [
      {"measurement": "K/S (depth of shade) cPU", "setting": "[1]", "value": 5.1600}
    ]},
    {"molecule": "C.I. Acid Blue 61", "values": [
      {"measurement": "K/S (depth of shade) cPU", "setting": "dyebath pH = 2.5, 65° C.", "value": 0.6457},
      {"measurement": "K/S (depth of shade) cPU", "setting": "dyebath pH = 3.3, 65° C.", "value": 0.2492},
      {"measurement": "K/S (depth of shade) cPU", "setting": "dyebath pH = 6.0, 65° C.", "value": 0.2057}
    ]},
    {"molecule": "C.I. Acid Blue 127", "values": [
      {"measurement": "K/S (depth of shade) cPU", "setting": "dyebath pH = 2.5, 65° C.", "value": 0.4025},
      {"measurement": "K/S (depth of shade) cPU", "setting": "dyebath pH = 3.3, 65° C.", "value": 0.7395},
      {"measurement": "K/S (depth of shade) cPU", "setting": "dyebath pH = 6.0, 65° C.", "value": 0.1322}
    ]},
    {"molecule": "C.I. Basic Blue 45", "values": [
      {"measurement": "K/S (depth of shade) cPU", "setting": "[1]", "value": 6.7500}
    ]},
    {"molecule": "C.I. Basic Blue 62", "values": [
      {"measurement": "K/S (depth of shade) cPU", "setting": "[1]", "value": 10.821}
    ]},
    {"molecule": "C.I. Direct Blue 199", "values": [
      {"measurement": "K/S (depth of shade) cPU", "setting": "[2]", "value": 0.0313},
      {"measurement": "K/S (depth of shade) cPU", "setting": "[3]", "value": 0.0389}
    ]},
    {"molecule": "C.I. Disperse Blue 172", "values": [
      {"measurement": "K/S (depth of shade) cPU", "setting": "[1]", "value": 1.1467}
    ]},
    {"molecule": "C.I. Reactive Blue 109", "values": [
      {"measurement": "K/S (depth of shade) cPU", "setting": "[1]", "value": 0.0353}
    ]},
    {"molecule": "C.I. Reactive Blue 160", "values": [
      {"measurement": "K/S (depth of shade) cPU", "setting": "[1]", "value": 0.0285}
    ]},
    {"molecule": "C.I. Reactive Blue 163", "values": [
      {"measurement": "K/S (depth of shade) cPU", "setting": "[1]", "value": 0.0345}
    ]}
  ]
}
